Anti-infective test results gathered from many reports (values: NIAID ChemDB through PubChem).

Common to all: tests in culture; organism: Rhinovirus; read by: cytopathic effect; measure: EC50

Rows are shuffled and stem from different studies.

SMILES | cells | strain or isolate | result
CSc1nc2ccc(OCCC3CCN(c4ccc(C)nn4)CC3)cc2o1 | MRC-5 | Serotype 1A | 0.006 µg/mL
CSc1nsc(-c2ccc(OCCCOc3ccc([N+](=O)[O-])cc3)cc2)c1C#N | HELA-OHIO | Serotype 72 (group A) | >1 µM
CSc1nsc(-c2ccc(OCc3ccccc3)cc2)c1C#N | HELA-OHIO | Serotype 15 (group B) | 3 µM
CS(=O)(=O)c1ccc(NCc2ccc(Br)cc2)nc1 | HeLa | TYPE 64 | 6.3 µg/mL
CSc1nsc(-c2ccc(OCc3ccccc3)cc2)c1C#N | HELA-OHIO | Serotype 2 (group B) | 20 µM
COc1ccc(CCCOc2cc(C)c(-c3noc(C(F)(F)F)n3)c(C)c2)nn1 | HeLa | serotypes 3 4 5 9 16 18 38 66 75 67 | 10.09 µg/mL
Cc1nc(-c2cc(C)c(OCCCc3cc(C(F)(F)F)no3)c(C)c2)no1 | HeLa | Serotype 50 | 0.19 µg/mL
CCn1c2c(c(=O)c3cc(C(C)C)ccc31)Cc1ccccc1-2 | HELA-OHIO | 10/204-CV14 | 1.8 µg/mL
CC(=O)c1ccc(CCCOc2cc(C)c(-c3noc(C)n3)c(C)c2)nn1 | HeLa | serotypes 3 4 5 9 16 18 38 66 75 67 | 0.14 µg/mL
CS(=O)(=O)c1cccnc1Oc1ccc(C(=O)c2ccccc2)cc1 | HeLa | TYPE 1A | >10 µg/mL
CCc1nc(-c2cc(C)c(OCCCc3cc(COC)no3)c(C)c2)no1 | HeLa | Serotype 2 | 0.006 µg/mL
CS(=O)(=O)c1ccc(NCc2ccc(Cl)c(Cl)c2)nc1 | HeLa | TYPE 89 | 1.3 µg/mL
CS(=O)(=O)c1ccc(Oc2ccc(C(=O)c3ccccc3)cc2)nc1 | HeLa | TYPE 4 | 3.1 µg/mL
CSc1nsc(-c2ccc(OCCCOc3ccc(C#N)cc3)cc2)c1C#N | HELA-OHIO | Serotype 9 (group B) | >2 µM
CC(=O)c1ccc(CCCOc2c(C)cc(-c3noc(C(F)(F)F)n3)cc2C)nn1 | HeLa | serotypes 3 4 5 9 16 18 38 66 75 67 | 0.14 µg/mL
CSc1nsc(-c2ccc(OCCc3ccccc3)cc2)c1C#N | HELA-OHIO | Serotype 9 (group B) | 5 µM
CCOc1cc(OC)ccc1-c1cc(N(CC)CC)no1 | HeLa | Serotype 15 (group B) | 5 µM
COc1cc2c(=O)c(C)c(-c3ccccc3)n(C)c2cc1C(C)C | HELA-OHIO | TYPE 89/41617-GALLO | <0.033 µg/mL
CCN(CC)c1cc(-c2ccc(OC)cc2OC)on1 | HeLa | Serotype 70 (group A) | >362 µM
COc1nc2ccc(OCCC3CCN(c4ccc(C)nn4)CC3)cc2o1 | MRC-5 | Serotype 14 | 0.02 µg/mL
CS(=O)(=O)c1ccc(Cc2ccc(S(C)(=O)=O)cn2)cc1 | HeLa | TYPE 64 | >10 µg/mL
CSc1nsc(-c2ccc(OCCOc3ccccc3)cc2)c1C#N | HELA-OHIO | Serotype 63 (group B) | >20 µM
CCn1oc2cc(OCCC3CCN(c4ccc(C)nn4)CC3)ccc2c1=O | MRC-5 | Serotype 14 | >0.25 µg/mL
COc1ccc(-c2cc(N3CCCC3)no2)c(O)c1 | HeLa | Serotype 72 (group A) | >384 µM
Cc1c(-c2ccccc2)n(-c2cccc(F)c2)c2ccc(C(C)C)cc2c1=O | HELA-OHIO | TYPE 1B/B632 | 0.18 µg/mL
CSc1nsc(-c2ccc(OC(C)(C)C)cc2)c1C#N | HELA-OHIO | Serotype 51 (group B) | >40 µM
CCOc1nc2ccc(OCCCC3CCN(c4ccc(Cl)nn4)CC3)cc2o1 | MRC-5 | Serotype 14 | 0.01 µg/mL
CS(=O)(=O)c1ccc(Cc2ccc(Cl)c(Cl)c2)nc1 | HeLa | TYPE 74 | 5 µg/mL
COC(=O)c1cc(CCCOc2c(C)cc(-c3noc(C)n3)cc2C)on1 | HeLa | Serotype 41 | 0.145 µg/mL
Cc1cc(-c2noc(C(F)F)n2)cc(C)c1OCCCc1cccnn1 | HeLa | serotypes 3 4 5 9 16 18 38 66 75 67 | 0.1315 µg/mL
CCS(=O)(=O)c1ccc(NCc2ccc(Cl)c(Cl)c2)nc1 | HeLa | TYPE 64 | 6.3 µg/mL
CCOC(=O)c1ccc(OCCC2CCN(c3ccc(C)nn3)CC2)cc1 | WI-38 | Serotype 54 | <0.1 µg/mL
CCCc1nc2ccc(OCCC3CCN(c4ccc(C)nn4)CC3)cc2o1 | MRC-5 | Serotype 2 | 0.075 µg/mL
CN(C)c1cc(-c2ccc(O)cc2O)on1 | HeLa | Serotype 14 | >227 µM
Cc1c(-c2ccccc2)n(-c2ccc(F)cc2)c2ccc(C(C)C)cc2c1=O | HELA-OHIO | 1A/E28 | >2 µg/mL
CSc1nsc(-c2ccc(OCCOc3ccc(C#N)cc3)cc2)c1C#N | HELA-OHIO | Serotype 51 (group B) | >2 µM
C#CCOc1cc(OC)ccc1-c1cc(N(CC)CC)no1 | HeLa | Serotype 15 (group B) | 2.5 µM
CCc1nc2ccc(OCCC3CCN(c4ccc(C)nn4)CC3)cc2o1 | MRC-5 | Serotype 1A | 0.06 µg/mL
CSc1nsc(-c2ccccc2)c1C#N | HELA-OHIO | Serotype 45 (group A) | >80 µM

The first 5 rows once more:

| SMILES | cells | strain or isolate | result |
|---|---|---|---|
| CSc1nc2ccc(OCCC3CCN(c4ccc(C)nn4)CC3)cc2o1 | MRC-5 | Serotype 1A | 0.006 µg/mL |
| CSc1nsc(-c2ccc(OCCCOc3ccc([N+](=O)[O-])cc3)cc2)c1C#N | HELA-OHIO | Serotype 72 (group A) | >1 µM |
| CSc1nsc(-c2ccc(OCc3ccccc3)cc2)c1C#N | HELA-OHIO | Serotype 15 (group B) | 3 µM |
| CS(=O)(=O)c1ccc(NCc2ccc(Br)cc2)nc1 | HeLa | TYPE 64 | 6.3 µg/mL |
| CSc1nsc(-c2ccc(OCc3ccccc3)cc2)c1C#N | HELA-OHIO | Serotype 2 (group B) | 20 µM |

ECn is the concentration giving n% inhibition of infection, replication or growth.